Pooled drug test results. Numbers come from NIAID ChemDB, via PubChem.

Common to all: cytotoxicity tests; cells: HFF; read-out: CC50

An empty or dashed field is not shown.

| SMILES | method | value |
|---|---|---|
| C[CH2][Sn]([Cl])([Cl])[CH2]C.c1ccc(-c2nc3ccccc3[nH]2)nc1 | - | 19 µg/mL |
| N#Cc1cn([C@@H]2O[C@H](CO)C[C@H]2O)c2ncnc(N)c12 | - | 3 µM |
| Cn1cnc2nc(NCCO)nc(NCc3ccccc3)c21 | visual reading | >100 µM |
| C[CH2][Sn]([Br])([Br])[CH2]C.c1cnc2c(c1)ccc1cccnc12 | - | 17 µg/mL |
| O=C1C(c2c(O)[nH]c3ccc([N+](=O)[O-])cc23)=Nc2ccccc21 | - | >320 µg/mL |
| CCC[CH2][Sn]([Cl])([Cl])[Cl] | - | 39 µg/mL |
| O=C1c2ccc(Br)cc2-n2c1nc1ccccc1c2=O | - | >320 µg/mL |
| NC(=S)c1cn([C@H]2C=C[C@@H](CO)O2)c2ncnc(N)c12 | - | 18 µM |
| O=C1C(c2c(O)[nH]c3ccc(Br)cc23)=Nc2ccccc21 | - | >320 µg/mL |
| OC[C@H]1O[C@@H](n2c(NC3CC3)nc3nc4cc(Cl)c(Cl)cc4cc32)[C@H](O)[C@@H]1O | - | >100 µM |
| O=C1c2ccc(Cl)cc2-n2c1nc1ccccc1c2=O | - | >320 µg/mL |
| CC[C@H]1OC(=O)[C@H](C)C(=O)[C@H](C)[C@@H](O[C@@H]2O[C@H](C)C[C@H](N(C)C)[C@H]2O)[C@](C)(OC)C[C@@H](C)C(=O)[C@H](C)[C@H]2N(CCCCn3cnc(-c4cccnc4)c3)C(=O)O[C@]12C | - | >25 µg/mL |
| NC(=S)c1cn([C@H]2C[C@H](O)[C@@H](CO)O2)c2ncnc(N)c12 | - | 41 µM |
| C=C1[C@H](CO)[C@@H](O)C[C@@H]1n1cnc2c(=O)[nH]c(N)nc21 | - | 120 µM |
| Nc1ncnc2c1c(Br)cn2COC(CO)CO | visual reading | 100 µM |
| CCOC(=O)c1cc2ccccc2nc1C | - | >300 µM |
| NC(=S)c1cn([C@@H]2O[C@H](CO)[C@@H](O)[C@H]2O)c2ncnc(N)c12 | - | 0.32 µM |
| Cc1nc2n(c(=O)c1CCN1CCC(c3noc4cc(F)ccc34)CC1)CCCC2 | - | 129 µg/mL |
| NC(=O)c1cn([C@H]2C[C@H](O)[C@@H](CO)O2)c2ncnc(N)c12 | - | 32 µM |
| OC[C@H]1O[C@@H](n2cnc3cc(Cl)c(Cl)cc32)[C@H](O)[C@@H]1O | - | 24 µM |
| O[C@]12C=C(c3nccc4c3[nH]c3ccccc34)[C@@H]3CCN(CCCC/C=C/CC1)C[C@@]31C[C@@H]3/C=C\CCCCN3C12 | - | >0.1 µM |
| Nc1ccn([C@@H]2C[C@@H](O)[C@H](CO)O2)c(=O)n1 | - | >60 µM |
| OC[C@H]1O[C@@H](n2cnc3cc4cc(Cl)c(Cl)cc4cc32)[C@H](O)[C@@H]1O | - | >100 µM |
| N#Cc1cn([C@@H]2O[C@H](CO)[C@@H](O)[C@@H]2Br)c2ncnc(N)c12 | - | 181 µM |
| N#Cc1cn([C@@H]2O[C@H](CO)[C@@H](O)[C@@H]2N)c2ncnc(N)c12 | - | >100 µM |
| Cn1cnc2c(NCc3ccccc3)nc(NCCO)nc21 | visual reading | ≥100 µM |
| N#Cc1cn([C@H]2CC[C@@H](CO)O2)c2ncnc(N)c12 | - | >100 µM |
| N#Cc1cn([C@@H]2O[C@H](CO)[C@@H](O)[C@@H]2N=[N+]=[N-])c2ncnc(N)c12 | - | 55 µM |
| OC[C@H]1O[C@@H](n2cnc3nc4cc(Cl)c(Cl)cc4cc32)[C@H](O)[C@@H]1O | - | >100 µM |
| Nc1nncc2c1c(Br)cn2[C@@H]1O[C@H](CO)[C@@H](O)[C@H]1O | visual reading | 100 µM |
| Nc1ncnc2c1ccn2[C@@H]1O[C@H](CO)[C@@H](O)[C@H]1O | - | 0.5 µM |
| CCCCCC[CH2][Sn]([Cl])([Cl])[CH2]CCCCCC | - | 26 µg/mL |
| Nc1ncnc2c1ncn2[C@@H]1CC(F)(F)[C@@H](O)[C@H]1O | - | 84 µM |
| CN(C)CCCN1c2ccccc2Sc2ccc(Cl)cc21 | - | 6 µg/mL |
| [Cl][Sn]([c]1ccccc1)([c]1ccccc1)[c]1ccccc1 | - | 2.3 µg/mL |
| OCC1OC(n2c(SCc3ccccc3)nc3nc4cc(Cl)c(Cl)cc4nc32)C(O)C1O | visual reading | 20 µM |
| NC(=O)N1c2ccccc2C=Cc2ccccc21 | - | 100 µg/mL |
| OC[C@H]1O[C@@H](n2c(SCc3ccccc3)nc3cc4cc(Cl)c(Cl)cc4cc32)[C@H](O)[C@@H]1O | - | >100 µM |
| O=C1C(c2c(O)[nH]c3ccccc23)=Nc2ccccc21 | - | >320 µg/mL |
| NC(=S)c1cn([C@@H]2O[C@H](CO)[C@H](O)[C@H]2O)c2ncnc(N)c12 | - | 0.6 µM |
| O=C1C(c2c(O)[nH]c3ccc(S(=O)(=O)O)cc23)=Nc2ccccc21 | - | >320 µg/mL |
| CC1=C(CC/C(C)=C/CC[C@@]2(C)CC[C@@H]([C@@H](C)C(=O)O)OO2)C(C)(C)CCC1 | - | <0.392 µM |
| C[C@H]1CCC/C=C/[C@@H]2C[C@H](O)C[C@H]2[C@@H](O)/C=C/C(=O)O1 | XTT | 146 µM |
| O=C1C(c2c(O)[nH]c3cc(Cl)ccc23)=Nc2ccccc21 | - | >320 µg/mL |

Conditions beyond the fields shown may differ between rows. CCn is the concentration with n% toxicity to the cells.